The results in this text go back to patent US7087375B1, “Method for determining the mechanism of HIV RT inhibitors” (priority 2000, dated 2006).

In experiment [1] the target is HIV-1 RT mutant 41/67/70/215 (Human immunodeficiency virus type 1 group M subtype B, UniProt P04585, D654N/K657R/M628L/T802Y). Conditions: 41/67/70/215 RT; ATP […].
For experiment [2], the target named is HIV-1 RT mutant M41L, T69S-AG, L210W, R211K, L214F, T215Y (Human immunodeficiency virus type 1 group M subtype B, UniProt P04585, L797W/L801F/M628L/R798K/T656S/T802Y).
For experiment [3], the target named is HIV-1 RT mutant M41L, T69S-SG, L210W, R211K, L214F, T215Y (Human immunodeficiency virus type 1 group M subtype B, UniProt P04585, L797W/L801F/M628L/R798K/T656S/T802Y).

Like-named read-outs stand apart in the source and are kept apart here.

What is called Ki is a measure of affinity in units of concentration, obtained from inhibition or displacement. The low end stands for higher affinity, the high end for lower affinity.

With `Cc1cn([C@H]2C[C@H](N=[N+]=[N-])[C@@H](CO[P@](=O)(O)O[P@](=O)(O)OP(=O)(O)O)O2)c(=O)[nH]c1=O`, in experiment [1], the “Fold resistance in RT-assay relative to HXB2” value was 5.0 (+/−1) fold.

As for `Cc1cn([C@H]2C=C[C@@H](COP(=O)(O)OP(=O)(O)OP(=O)(O)O)O2)c(=O)[nH]c1=O`, in experiment [2] (ATP 3.2 mM), the “Fold resistance with ATP (RT assay)” value is 11.7 +/− 1.4 fold, the Ki came to 27 nM and the Ki/Km amounted to 0.117. Further, in experiment [2] (without ATP), the “Fold resistance (RT assay)” value was 1.2 +/− 0.3 fold, the Ki was determined as 1.3 nM and the Ki/Km turned out to be 0.01. In addition, in experiment [3] (ATP 3.2 mM), the “Fold resistance with ATP (RT assay)” value was 8.1 fold, the inhibition constant Ki amounted to 14.7 nM and the Ki/Km turned out to be 0.08. Also, in experiment [3] (without ATP), the “Fold resistance (RT assay)” value was 1.4 fold, the Ki came out at 0.9 nM and the Ki/Km was 0.011.
